# Laboratory results as given in the supplement of paper PMC9931576.
# Human monoclonal antibodies against the spike receptor-binding domain (heavy:light variable regions). IC50 against pseudoviruses bearing the spike of naturally observed variants; lower = stronger; >10 µg/ml means not reached at the top dose. No active / inactive call. The stated detection limit is 0.0005 µg/ml; values near or below 0.001 µg/ml lie at the floor of the assay.
# B1: BD56-1687 (protein)
# chain 1: EAQLVESGGGLVQPGRSLRLSCTASGFTFGDYAMQWVRQAPGKGLEWVSGISWDSATIGYADSVKARFTISRDNAKNSLNLQMNSLTTEDTAFYYCARVYCGDNCYSIIWAGDAFDIWGQGTMVTVSA
# chain 2: QSVLTQPPSVSGAPGQRVTISCTGTSSNIGTIYDVHWYQQVPGTAPKLLIYGDNNRPSGVPDRFSGSKSGTSASLAIAGLQAEDEANYYCQSYDTSLSGVVFGGGTKLTVL
# B2: BD56-1705 (protein)
# chain 1: QIQLVQSGAEVKKPGASVKVSCKASGYIFVSYGLHWVRQAPGQGLEWMGWISPYNGDTNYVQKLQGRVTMTTDTSTSTAYMELRSLRSDDTAVYYCAIRPGYTSSWYDAFEIWGQGTLVTVSS
# chain 2: DIQLTQSPSFLSASVGDRVTITCRASQGISSFLAWYQQKPGKAPKLLIYAASTLQSGVPSRFSGSGSGTEFTLTISSLQPEDFATYYCQQLNSYPFTFGPGTKVDIK
# B3: BD56-1679 (protein)
# chain 1: QVQLVESGGGVVQPGRSLRLSCAASGFTFSSYAIHWVRQAPGKGLEWVAVISNDGSNKYYADSVKGRFTISRDNSKNMSEMQMNSLRTEDTAVYYCARGKILESFPLTDYYYYYGMDVWGQGTTVTVSS
# chain 2: AIQLTQSPSSLSASVGDRLTITCRASQGFGSALAWYQQKAGKAPRLLIYDASTLESGVPSRFSGSGSGTDFTLTISSLQPEDFATYYCQQFTHYPLTFGGGTKLEIK
# B4: COV2-2841 (protein)
# chain 1: QVQLQESGPGLVKPSETLSLTCTVSGGSISSYYWSWIRQPPGKGLEWIGHIYYTGSSYYNPSLKSRVTISLDTSKNQFSLKLNSVTAADTAVYYCARLRWLRGGIDFWGQGTLVIVSS
# chain 2: NLMLTQPHSVSESPGKTVTISCTGSSGSIASNYVQWYQQRPGSAPTTVIYEDNQRPSGVPDRFSGSIDSSSNSASLTISGLKTEDEADYYCQSYDSNNQVFGGGTKLTVL
# B5: BD56-1700 (protein)
# chain 1: EVQLVESGGGLVQPGGSLRLSCAASGFTFSDYDMHWLRQGTGKGLEWVSTIGTGGDTYYSGSVKGRFSMSRENAKNSLYLQMNSLRAGDTAVYYCARVKYDSSGYKWHLDYWGQGTLVSVSS
# chain 2: DIQMTQSPSSLSASLGDRVTITCRASQSISRYLNWYQQKPGKGPNLLIYDASSLQRGVPSRFSGSGSGTDFTLTISSLQPEDFATYYCQQSYTNPLYTFGQGTKLEIK
# B6: BD56-1685 (protein)
# chain 1: QVQLVQSGAEVKKPGSSVKVSCKASGVTSSTYAIIWVRQAPGQGLEWMGRIIPLLGIATYAQKFQGRVAITADESTSTAYMELSSLRSDDTAVYYCVCGDYGSSWFFDLWGRGTLVTVSS
# chain 2: DIVMTQTPLSLSVTPGQPASISCKSSQSLLHTDGKTYLYWYLQKPGQSPQLLIYQVSSRFSGVPDRFSGSGSGTDFTLKISRVEAEDVGVYYCMQGIHLPWTFGQGTKVDIK
# B7: BD56-1689 (protein)
# chain 1: QVQLVQSGPEVKKPGASVKVSCKASGYTFITYGINWVRQAPGQGLEWMGWINPYSGNTNYAQKVQGRVTMTTDTSTNTAYMEMRSLRYDDTAVYFCARASGYTGYGSNWYFHLWGRGTLVTVSS
# chain 2: QSVLTQPPSVSGAPGQRVTISCTGSSSNIGAGYDVHWYQQLPGTAPKLLIYANSDRPSGVPDRFSGSKSGTSASLAITGLQTEDEADYYCQSYDSSLSGSVFGGGTKLTVL
# B8: BD56-1702 (protein)
# chain 1: EVQLVQSGAEVKKPGESLKISCKGSGYSFTSYWIGWVRQMPGKGLEWMGIIYPGDSDTRYSPSFQGQVTISADKSISTAYLQWSSLKASDTAMYFCARHSSDGVHLRSLRDYFFMDVWGQGTTVTVSS
# chain 2: DIQMTQSPSSLSASVGDRVTITCRASQSISVYVNWYQQKPGKAPKLLIYAASSLQSGVPSRFSGSGSGTDFTLTISSLQPEDFATYYCQQSYSTRQLTFGGGTNVEIK
# B9: BD56-1684 (protein)
# chain 1: EVQLVESGGGLVQPGGSLRLSCAASDFIVSSNYMSWVRQAPGKGLEWVSVIYPGGSTFYADSVKGRFTISRHNSKNTLYLQMNSLRAEDTAVYYCARDYGDFYFDNWGQGTLVTVSS
# chain 2: EIVLTQSPGTLSLSPGERATLSCRASQSISTTYLAWYQQKPGQAPRLLIYDVSSRATGIPDRFSGSGSGTDFTLTISGLEPEDFAVYYCQQYGSSPRTFGPGTKVEIK
# B10: BD56-1706 (protein)
# chain 1: QVQLVQSGAEVKKPGASVKVSCKASGYTFTGYSLNWVRQAPGQGLEWMGWMNPNSGGSNSAQKFQGRVTMTRDTSISTAYMELSRLTSDDTAVYYCARESCSGTSCSDYWGQGTRVTVSS
# chain 2: SYVLTQPPSVSVAPGQTARITCGGDNIGSKSVHWYQQKPGQAPVLVVYDDSDRPSGIPERFSGSNSGNSATLTISRVEAGDEADYYCQVWDGSSDDFYIFGTGTKVTVL
# B11: BD56-1686 (protein)
# chain 1: EVQLVESGGGLVQPGGSLRLSCAASGFTFSNYDMHWVRQVTGKGLEWVSGIGTTGDTYYPGSVKGRFTISRENAKNSLYLQMDSLRAGDTAVYYCARVSYYYDTSGYYYTYWYFDLWGRGTLVTVSS
# chain 2: DIQMTPSPSSLSASLGDRVTITCRASQNIGSYLNWYQQKPGKAPKLLIYAAFSLQSGVPSRFSGSRFGTDFTLTISSLQPEDFATYYCQQSYSAPPWTFGQGTKVEIK
# B12: BD56-1681 (protein)
# chain 1: EVQLVETGGGLVQPGGSLRFSCTASGFSFSTYDMHWVRQPTGKGLEWVSAIGTAGDTYYAASVKGRFTISRENAKNSLYLQMNSLRPGDTAVYYCARGGSATYLTAGYFDIWGRGTLVTVSS
# chain 2: EIVMTQSPATLSVSPGERATLSCRASQSVRSNLAWYQQKPGQAPRLLIYGASARATGIPARFSGSGSGTEFTLTISSLQSEDSAVYYCQQYHVWPPETLGQGTKVEIK
# Biological target: SARS-CoV-2 Omicron BA.1 spike pseudovirus
# Experiment: pseudovirus neutralization IC50; higher = weaker neutralization
# Procedure: (§1)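 Single-round VSV luciferase pseudovirus mixed with antibody dilutions for 1 h and put on Huh-7 cells for about a day; IC50 from the dose curve.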
row,Binder,pseudovirus neutralization IC50
1,B1,0.82 µg/mL
2,B2,0.667 µg/mL
3,B3,0.00481 µg/mL
4,B4,> 10 µg/mL
5,B5,> 10 µg/mL
6,B6,> 10 µg/mL
7,B7,1.28 µg/mL
8,B8,> 10 µg/mL
9,B9,0.072 µg/mL
10,B10,5.78 µg/mL
11,B11,> 10 µg/mL
12,B12,> 10 µg/mL

# Biological target: SARS-CoV-2 Omicron BA.2 spike pseudovirus
# Experiment: as above
# Procedure: as §1
row,Binder,pseudovirus neutralization IC50
1,B1,0.66 µg/mL
2,B2,0.385 µg/mL
3,B3,0.00314 µg/mL
4,B4,> 10 µg/mL
5,B5,> 10 µg/mL
6,B6,> 10 µg/mL
7,B7,1.11 µg/mL
8,B8,> 10 µg/mL
9,B9,0.0851 µg/mL
10,B10,2.77 µg/mL
11,B11,> 10 µg/mL
12,B12,> 10 µg/mL

# Biological target: SARS-CoV-2 Omicron BA.2.75 spike pseudovirus
# Experiment: as above
# Procedure: as §1
row,Binder,pseudovirus neutralization IC50
1,B1,1.58 µg/mL
2,B2,0.671 µg/mL
3,B3,0.0536 µg/mL
4,B4,> 10 µg/mL
5,B5,> 10 µg/mL
6,B6,> 10 µg/mL
7,B7,1.62 µg/mL
8,B8,> 10 µg/mL
9,B9,> 10 µg/mL
10,B10,3.93 µg/mL
11,B11,> 10 µg/mL
12,B12,> 10 µg/mL

# Biological target: SARS-CoV-2 Omicron BA.5 spike pseudovirus
# Experiment: as above
# Procedure: as §1
row,Binder,pseudovirus neutralization IC50
1,B1,1.71 µg/mL
2,B2,> 10 µg/mL
3,B3,> 10 µg/mL
4,B4,> 10 µg/mL
5,B5,> 10 µg/mL
6,B6,> 10 µg/mL
7,B7,> 10 µg/mL
8,B8,> 10 µg/mL
9,B9,0.275 µg/mL
10,B10,3.01 µg/mL
11,B11,> 10 µg/mL
12,B12,> 10 µg/mL

# Biological target: SARS-CoV-2 Omicron BQ.1.1 spike pseudovirus
# Experiment: as above
# Procedure: as §1
row,Binder,pseudovirus neutralization IC50
1,B1,1.76 µg/mL
2,B2,> 10 µg/mL
3,B3,> 10 µg/mL
4,B4,> 10 µg/mL
5,B5,> 10 µg/mL
6,B6,> 10 µg/mL
7,B7,> 10 µg/mL
8,B8,> 10 µg/mL
9,B9,> 10 µg/mL
10,B10,> 10 µg/mL
11,B11,> 10 µg/mL
12,B12,> 10 µg/mL

# Biological target: SARS-CoV-2 Omicron XBB spike pseudovirus
# Experiment: as above
# Procedure: as §1
row,Binder,pseudovirus neutralization IC50
1,B1,2.4 µg/mL
2,B2,> 10 µg/mL
3,B3,> 10 µg/mL
4,B4,> 10 µg/mL
5,B5,> 10 µg/mL
6,B6,> 10 µg/mL
7,B7,> 10 µg/mL
8,B8,> 10 µg/mL
9,B9,> 10 µg/mL
10,B10,3.93 µg/mL
11,B11,> 10 µg/mL
12,B12,> 10 µg/mL

# Biological target: SARS-CoV-2 early D614G spike pseudovirus
# Experiment: as above
# Procedure: as §1
row,Binder,pseudovirus neutralization IC50
1,B1,0.224 µg/mL
2,B2,> 10 µg/mL
3,B3,0.0666 µg/mL
4,B4,0.966 µg/mL
5,B5,> 10 µg/mL
6,B6,> 10 µg/mL
7,B7,0.74 µg/mL
8,B8,> 10 µg/mL
9,B9,0.0116 µg/mL
10,B10,> 10 µg/mL
11,B11,> 10 µg/mL
12,B12,> 10 µg/mL
